Pooled drug test results. Numbers come from NIAID ChemDB, via PubChem.

All rows: target-level tests

Percent inhibition refers to the dose given; in toxicity tests it is the harm to the cells.

smiles,strain,changes,measure,tested at,read by,organism,setting,protein,value
O=S1(=O)N(Cc2ccc(CO)cc2)[C@H](COc2ccccc2)[C@H](O)[C@@H](O)[C@@H](COc2ccccc2)N1Cc1ccc(CO)cc1,-,PR-G48V V82A I84V L90M,Ki,-,-,HIV,-,Protease,1.17 µM
CC(C)[C@H](NC(=O)c1ccc2ccccc2n1)C(=O)N[C@@H](Cc1ccccc1)[C@H](O)CN1CC[C@@H](OCc2ccncc2)C[C@H]1C(=O)NC(C)(C)C,ROD,-,Ki,-,fluorescence,HIV-2,-,Protease,0.000134 µM
Cc1cn([C@@H]2O[C@H](CO[Si](C)(C)C(C)(C)C)[C@@]3(OS(=O)(=O)C=C3N)[C@H]2O[Si](C)(C)C(C)(C)C)c(=O)[nH]c1=O,-,RT-N137K,fold resistance,-,nucleotide incorporation / radiometric,HIV,-,Reverse transcriptase,1.3
CC(C)[C@H](N)C(=O)N[C@@H](Cc1ccccc1)C(O)[C@H](Cc1ccccc1)NC(=O)[C@@H](NC(=O)OCc1ccccc1)C(C)C,-,-,inhibition,0.01 µM,fluorescence,HIV-1,-,Protease,52%
O=c1ccc2cc(O[C@@H]3O[C@H](CO)[C@@H](O)[C@H](O)[C@H]3O)c(O)cc2o1,-,-,inhibition,50 µg/mL,ELISA,HIV-1,-,gp41,5%
COc1ccc2c(c1)c(CC(=O)O)c(C)n2C(=O)c1ccc(Cl)cc1,-,-,inhibition,10 µM,AlphaScreen,HIV-1,-,Integrase,30.42%
COc1cc2ccc(=O)oc2c(O[C@@H]2O[C@H](CO)[C@@H](O)[C@H](O)[C@H]2O)c1O,-,-,IC50,-,ELISA,HIV-1,-,gp41,>50 µg/mL
O=C1N(Cc2ccc(CO)cc2)[C@H](COc2ccccc2)[C@H](O)[C@@H](O)[C@@H](COc2ccccc2)N1Cc1ccc(CO)cc1,-,PR-I84V L90M,Ki,-,fluorescence,HIV,-,Protease,0.00021 µM
Cc1cccc(C)c1OCC(=O)N[C@@H](Cc1ccccc1)[C@H](O)CN1CC[C@@H](Sc2ccncc2)C[C@H]1C(=O)NC(C)(C)C,-,PR-L10I L23I M46I I84V,fold resistance,-,fluorescence,HIV,-,Protease,35.8
NC[C@@H]1O[C@H](O[C@H]2[C@@H](O)[C@H](O[C@@H]3[C@@H](O)[C@H](N)C[C@H](N)[C@H]3O[C@H]3O[C@H](CN)[C@@H](O)[C@H](O)[C@H]3N)O[C@@H]2CO)[C@H](N)[C@@H](O)[C@@H]1O,-,-,inhibition,1 µM,gel,HIV-1,-,Rev:RRE,100%
CC[C@H]1C(=O)Nc2ccc(F)cc2N1C(=O)OC(C)C,-,RT-N137D,IC50,-,nucleotide incorporation / radiometric,HIV,-,Reverse transcriptase,0.011 µM
CC1(C)OC(=O)/C(=C/C(=O)c2cn(Cc3ccc(F)cc3)c3ccc(Br)cc23)O1,-,Y143R,IC50,-,strand transfer / fluorescence,HIV-1,-,Integrase,16.2 µM
CC(C)(O)c1ccccc1CC[C@@H](SCC1(CC(=O)O)CC1)c1cccc(/C=C/c2ccc3ccc(Cl)cc3n2)c1,-,-,inhibition,10 µM,AlphaScreen,HIV-1,-,Integrase,16.03%
NC[C@H]1O[C@H](O[C@H]2[C@H](O)[C@@H](O[C@H]3O[C@H](CO)[C@@H](O)[C@H](N)[C@H]3O)[C@H](N)C[C@@H]2N)[C@H](N)[C@@H](O)[C@@H]1O,-,-,inhibition,100 µM,gel,HIV-1,-,Rev:RRE,100%
Cc1ccc(S(=O)(=O)n2cc(C(=O)/C=C3\OC(C)(C)OC3=O)c3cc(Br)ccc32)cc1,-,Y143R,IC50,-,strand transfer / fluorescence,HIV-1,-,Integrase,5 µM
CC(C)C(NC(=O)[C@@H](NC(=O)OCc1ccccc1)C(C)C)C(F)(F)C(O)C(CC1CCCCC1)NC(=O)[C@@H](NC(=O)OCc1ccccc1)C(C)C,-,-,inhibition,0.0025 µM,fluorescence,HIV-1,-,Protease,59%
O=C(O)C(=O)/C=C(\O)c1cn(Cc2ccc(F)cc2)c2ccc(Br)cc12,-,-,IC50,-,strand transfer / fluorescence,HIV-1,-,Integrase,0.2 µM
CO[P@](=O)(c1cc(C)cc(/C=C/C#N)c1)c1c(C(N)=O)[nH]c2ccc(Cl)c(F)c12,-,Y188L,IC50,-,-,HIV,-,Reverse transcriptase,1.25 µM
Cc1cn([C@H]2C=C[C@@H](COP(=O)(O)OP(=O)(O)OP(=O)(O)O)O2)c(=O)[nH]c1=O,-,RT-N137Q,fold resistance,-,nucleotide incorporation / radiometric,HIV,-,Reverse transcriptase,1.26
CN(C)[C@@H]1C(=O)C(C(N)=O)=C(O)[C@@]2(O)C(=O)C3=C(O)c4c(O)cccc4[C@@](C)(O)[C@H]3C[C@@H]12,-,-,inhibition,100 µM,gel,HIV-1,-,Rev:RRE,0%
Cc1cn([C@@H]2O[C@H](CO[Si](C)(C)C(C)(C)C)C3(OS(=O)(=O)C=C3N)[C@H]2O[Si](C)(C)C(C)(C)C)c(=O)n(C)c1=O,-,RT-Y181I,fold resistance,-,nucleotide incorporation,HIV,-,Reverse transcriptase,>183
CC(C)[C@H](NC(=O)CCN1CCOCC1)C(=O)N[C@@H](Cc1ccccc1)[C@@H](O)[C@H](O)[C@H](Cc1ccccc1)NC(=O)[C@@H](NC(=O)CCN1CCOCC1)C(C)C,-,-,inhibition,0.1 µM,fluorescence,HIV-1,-,Protease,82%
Cc1c(Sc2ccccc2)n(COCCO)c(=O)[nH]c1=O,-,RT-L100I,fold resistance,-,-,HIV-1,-,Reverse transcriptase,>10
CN[C@@H]1[C@H](O[C@H]2[C@H](O[C@H]3[C@H](O)[C@@H](O)[C@H](N=C(N)N)[C@@H](O)[C@@H]3N=C(N)N)O[C@@H](C)[C@]2(O)C=O)O[C@@H](CO)[C@H](O)[C@H]1O,-,-,inhibition,100 µM,gel,HIV-1,-,Rev:RRE,0%
COc1cc(C[C@@]2(O)CO[C@H](c3ccc(O)c(OC)c3)[C@H]2CO)ccc1O,-,-,IC50,-,ELISA,HIV-1,-,gp41,>50 µg/mL
CC(C)Nc1cccnc1N1CCN(C(=O)c2cc3ccccc3[nH]2)CC1,-,RT-E138K,fold resistance,-,nucleotide incorporation,HIV,-,Reverse transcriptase,1.03
CC(C)[C@H](NC(=O)OCc1ccccc1)C(=O)N[C@@H](Cc1ccccc1)[C@@H](O)[C@H](O)[C@H](Cc1ccccc1)NC(=O)[C@@H](NC(=O)OCc1ccccc1)C(C)C,-,-,IC50,-,fluorescence,HIV-1,-,Protease,<0.001 µM
CNC(=O)[C@@H](NC(=O)[C@H](OCc1ccccc1)[C@H](O)[C@@H](O)[C@@H](OCc1ccccc1)C(=O)N[C@H]1c2ccccc2C[C@H]1O)C(C)C,-,PR-V82A I84V L90M,fold resistance,-,-,HIV,-,Protease,7.5
CCOC(=O)C(C(=O)OCC)c1cn(S(=O)(=O)c2ccc(C)cc2)c2ccc(NC(=O)c3ccc(F)cc3Cl)cc12,-,Y143R,fold resistance,-,strand transfer / fluorescence,HIV-1,-,Integrase,1
Cc1cc(S(N)(=O)=O)ccc1NC(=O)COc1ccc(Cl)cc1C(=O)c1cc(Cl)cc(C#N)c1,-,RT-L100I,IC50,-,fluorescence,HIV-1,-,Reverse transcriptase,0.00084 µM
CC(C)[C@H](NC(=O)OCc1ccccc1)C(=O)N[C@@H](CSC1CCCCC1)[C@@H](O)[C@H](O)[C@H](CSC1CCCCC1)NC(=O)[C@@H](NC(=O)OCc1ccccc1)C(C)C,-,-,IC50,-,fluorescence,HIV-1,-,Protease,<0.1 µM
O=S1(=O)N(Cc2cccc(-c3cccs3)c2)[C@H](COc2ccccc2)[C@H](O)[C@@H](O)[C@@H](COc2ccccc2)N1Cc1cccc(-c2cccs2)c1,-,PR-I84V,fold resistance,-,-,HIV-1,-,Protease,37.7
CC(C)[C@H](NC(=O)c1ccc2ccccc2n1)C(=O)N[C@@H](Cc1ccccc1)[C@H](O)CN1CC[C@@H](SCc2cccnc2)C[C@H]1C(=O)NC(C)(C)C,-,PR-L23I V32I M46I I47V I54M A71V I84V,fold resistance,-,fluorescence,HIV,-,Protease,6060
NC[C@@H]1O[C@H](O[C@H]2[C@@H](O)[C@H](O[C@@H]3[C@@H](O)[C@H](N)C[C@H](N)[C@H]3O[C@H]3O[C@H](CO)[C@@H](O)C[C@H]3N)O[C@@H]2CO)[C@H](N)[C@@H](O)[C@@H]1O[C@H]1O[C@H](CO)[C@@H](O)[C@H](O)[C@@H]1O,-,-,inhibition,10 µM,gel,HIV-1,-,Rev:RRE,100%
O=C(/C=C/c1ccc(O)c(O)c1)OC[C@H]1O[C@@H](OCCc2ccc(O)c(O)c2)[C@H](O)[C@@H](O)[C@@H]1O,-,-,inhibition,50 µg/mL,ELISA,HIV-1,-,gp41,25%
Nc1nc2c(ncn2[C@H]2CC[C@@H](COP(=O)(O)OP(=O)(O)OP(=O)(O)O)O2)c(=O)[nH]1,-,RT-E138K,fold resistance,-,nucleotide incorporation,HIV,-,Reverse transcriptase,7.61
CCOC(=O)C(C(=O)OCC)c1cn(Cc2cc(F)ccc2F)c2ccc(F)cc12,-,G140S,fold resistance,-,strand transfer / fluorescence,HIV-1,-,Integrase,1
CN[C@@H]1[C@@H](O)[C@@H](O[C@@H]2[C@@H](O)[C@H](O[C@H]3O[C@H]([C@@H](C)NC)CC[C@H]3N)[C@@H](N)C[C@H]2N)OC[C@]1(C)O,-,-,inhibition,100 µM,gel,HIV-1,-,Rev:RRE,0%
O=C(O)C(=O)/C=C(\O)c1cn(Cc2cc(F)ccc2F)c2ccc(Br)cc12,-,-,IC50,-,strand transfer / fluorescence,HIV-1,-,Integrase,10.6 µM
Cc1ccc(C(=O)c2ccc(CC(=O)O)n2C)cc1,-,-,inhibition,10 µM,AlphaScreen,HIV-1,-,Integrase,11.09%
CC(O)/C=C/c1ccc2c(c1)c(C(=O)/C=C1\OC(C)(C)OC1=O)cn2Cc1ccc(F)cc1,-,-,IC50,-,strand transfer / fluorescence,HIV-1,-,Integrase,11.6 µM
CC[C@H](C)[C@@H](NC(=O)[C@@H](C[C@H](O)[C@H](CC(C)C)NC(=O)[C@H](Cc1cnc[nH]1)NC(=O)[C@H](Cc1ccccc1)NC(=O)[C@@H]1CCCN1C(=O)[C@@H](N)Cc1cnc[nH]1)C(C)C)C(=O)N[C@@H](Cc1cnc[nH]1)C(=O)O,-,-,inhibition,1000 µM,HPLC,HIV-2,pH 7.0,Protease,40%
CC1CNc2c(cccc2S(=O)(=O)N[C@@H](CCCN=C(N)N)C(=O)N2CC[C@@H](C)C[C@@H]2C(=O)O)C1,-,-,inhibition,10 µM,AlphaScreen,HIV-1,-,Integrase,7.29%

For reference, 5 entries again:

smiles	strain	changes	measure	tested at	read by	organism	setting	protein	value
CC(C)[C@H](NC(=O)OCc1ccccc1)C(=O)N[C@@H](CSC1CCCCC1)[C@@H](O)[C@H](O)[C@H](CSC1CCCCC1)NC(=O)[C@@H](NC(=O)OCc1ccccc1)C(C)C	-	-	IC50	-	fluorescence	HIV-1	-	Protease	<0.1 µM
CC(C)[C@H](NC(=O)OCc1ccccc1)C(=O)N[C@@H](Cc1ccccc1)[C@@H](O)[C@H](O)[C@H](Cc1ccccc1)NC(=O)[C@@H](NC(=O)OCc1ccccc1)C(C)C	-	-	IC50	-	fluorescence	HIV-1	-	Protease	<0.001 µM
CNC(=O)[C@@H](NC(=O)[C@H](OCc1ccccc1)[C@H](O)[C@@H](O)[C@@H](OCc1ccccc1)C(=O)N[C@H]1c2ccccc2C[C@H]1O)C(C)C	-	PR-V82A I84V L90M	fold resistance	-	-	HIV	-	Protease	7.5
CC(O)/C=C/c1ccc2c(c1)c(C(=O)/C=C1\OC(C)(C)OC1=O)cn2Cc1ccc(F)cc1	-	-	IC50	-	strand transfer / fluorescence	HIV-1	-	Integrase	11.6 µM
COc1ccc2c(c1)c(CC(=O)O)c(C)n2C(=O)c1ccc(Cl)cc1	-	-	inhibition	10 µM	AlphaScreen	HIV-1	-	Integrase	30.42%

ICn: concentration for n% inhibition. Neighbouring rows are from separate reports. Blank or dashed fields: not listed here. Fold resistance has wild type as its base.